Measured data: PubChem BioAssay AID624099 (ICCB-Longwood, 2012)
Screen: 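Host factors E2 relies on to silence an HPV18 LCR reporter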 (primary screen). Cell system: human C33A cervical carcinoma cells (HPV-negative) stably expressing BPV1 E2 and an HPV18 LCR luciferase reporter. Reagent: siRNA pool against human genes, 40 nM. Timing: 72 h. Measured: 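HPV18 LCR reporter light per well, converted to plate-wise z-scores that exclude control wells, and averaged over triplicate plates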. Reading the numbers: mean z-score and z-score: higher = stronger reporter signal, weaker E2 silencing. Active means: 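Hit if mean z-score reaches 2 and two or more of three replicate z-scores also reach 2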.
The deposit covers about 21,000 reagents; this is a random part of them. In the full data, 497 (2.4%) are marked active. 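Higher z means weaker E2 silencing; only reporter increases were scored, and knock-downs that hurt cell survival may mask genuine repressor factors.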

ZNF667-AS1 (GeneID 100128252): mean z-score = -1.61; z-score, replicate A = -2.03; z-score, replicate B = -1.75; z-score, replicate C = -1.05; call = inactive
DPY19L4 (GeneID 286148): mean z-score = -0.3; z-score, replicate A = -0.31; z-score, replicate B = -0.42; z-score, replicate C = -0.18; call = inactive
LGI4 (GeneID 163175): mean z-score = -2.06; z-score, replicate A = -2.1; z-score, replicate B = -2.02; z-score, replicate C = -2.07; call = inactive
ANKH (GeneID 56172): mean z-score = 3.13; z-score, replicate A = 3.21; z-score, replicate B = 3.29; z-score, replicate C = 2.88; call = active
G6PC3 (GeneID 92579): mean z-score = -0.03; z-score, replicate A = -0.18; z-score, replicate B = -0.05; z-score, replicate C = 0.14; call = inactive
NADSYN1 (GeneID 55191): mean z-score = 1.68; z-score, replicate A = 1.93; z-score, replicate B = 1.68; z-score, replicate C = 1.42; call = inactive
XRCC2 (GeneID 7516): mean z-score = -0.33; z-score, replicate A = 0.01; z-score, replicate B = -0.2; z-score, replicate C = -0.81; call = inactive
ZNF749 (GeneID 388567): mean z-score = 0.02; z-score, replicate A = 0.05; z-score, replicate B = -0.03; z-score, replicate C = 0.03; call = inactive
KLRC1 (GeneID 3821): mean z-score = -1.02; z-score, replicate A = -1.27; z-score, replicate B = -1.11; z-score, replicate C = -0.69; call = inactive

Continued, starting with the last 3 of the part before.
XRCC2 (GeneID 7516): mean z-score = -0.33; z-score, replicate A = 0.01; z-score, replicate B = -0.2; z-score, replicate C = -0.81; call = inactive
ZNF749 (GeneID 388567): mean z-score = 0.02; z-score, replicate A = 0.05; z-score, replicate B = -0.03; z-score, replicate C = 0.03; call = inactive
KLRC1 (GeneID 3821): mean z-score = -1.02; z-score, replicate A = -1.27; z-score, replicate B = -1.11; z-score, replicate C = -0.69; call = inactive
NIPSNAP2 (GeneID 2631): mean z-score = 0.53; z-score, replicate A = 0.44; z-score, replicate B = 0.47; z-score, replicate C = 0.68; call = inactive
HSP90AA2P (GeneID 3324): mean z-score = 0.17; z-score, replicate A = 0.4; z-score, replicate B = 0.03; z-score, replicate C = 0.1; call = inactive
HOXA11 (GeneID 3207): mean z-score = 0.26; z-score, replicate A = 0.03; z-score, replicate B = 0.49; z-score, replicate C = 0.26; call = inactive
SMIM32 (GeneID 389332): mean z-score = 0.61; z-score, replicate A = 0.86; z-score, replicate B = 0.36; z-score, replicate C = 0.61; call = inactive
PAPSS2 (GeneID 9060): mean z-score = 0.89; z-score, replicate A = 0.44; z-score, replicate B = 0.85; z-score, replicate C = 1.39; call = inactive
SIGLEC12 (GeneID 89858): mean z-score = -0.4; z-score, replicate A = -0.33; z-score, replicate B = -0.56; z-score, replicate C = -0.29; call = inactive
RPL23AP14 (GeneID 341511): mean z-score = -0.21; z-score, replicate A = -0.07; z-score, replicate B = -0.18; z-score, replicate C = -0.39; call = inactive
RWDD2B (GeneID 10069): mean z-score = 1.26; z-score, replicate A = 1.6; z-score, replicate B = 1.08; z-score, replicate C = 1.11; call = inactive
LPAR3 (GeneID 23566): mean z-score = 0.24; z-score, replicate A = -0.06; z-score, replicate B = 0.3; z-score, replicate C = 0.47; call = inactive
BRWD3 (GeneID 254065): mean z-score = 0.79; z-score, replicate A = 0.9; z-score, replicate B = 1.14; z-score, replicate C = 0.34; call = inactive
FOXD4L4 (GeneID 349334): mean z-score = -0.1; z-score, replicate A = -0.06; z-score, replicate B = 0.03; z-score, replicate C = -0.26; call = inactive
HES3 (GeneID 390992): mean z-score = -0.67; z-score, replicate A = -0.66; z-score, replicate B = -0.43; z-score, replicate C = -0.91; call = inactive
